Measurements reported in PubChem BioAssay AID624099 (ICCB-Longwood, 2012)

Screen: 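Host factors E2 relies on to silence an HPV18 LCR reporter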 (primary screen)
Cell system: human C33A cervical carcinoma cells (HPV-negative) stably expressing BPV1 E2 and an HPV18 LCR luciferase reporter
Knock-down reagent: siRNA pool against human genes, 40 nM
Duration: 72 h
Measured: 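HPV18 LCR reporter light per well, converted to plate-wise z-scores that exclude control wells, and averaged over triplicate plates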
Direction: mean z-score and z-score: higher = stronger reporter signal, weaker E2 silencing
Hit rule: 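Mean z ≥ 2 together with z ≥ 2 in two or more of the three replicates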
The whole screen tested about 21,000 reagents; shown is a part drawn at random. 497 of them (2.4%) count as active. 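Higher z means weaker E2 silencing; only reporter increases were scored, and knock-downs that hurt cell survival may mask genuine repressor factors.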 Unmarked entries are inactive.

{"gene": "LOC391092", "mean z-score": -0.59, "z-score, replicate A": -0.36, "z-score, replicate B": -0.53, "z-score, replicate C": -0.87}
{"gene": "DHRS3", "mean z-score": 1.13, "z-score, replicate A": 1.17, "z-score, replicate B": 1.04, "z-score, replicate C": 1.17}
{"gene": "GFUS", "mean z-score": 0.07, "z-score, replicate A": -0.21, "z-score, replicate B": -0.01, "z-score, replicate C": 0.42}
{"gene": "FBXW4", "mean z-score": 0.64, "z-score, replicate A": 0.57, "z-score, replicate B": 0.55, "z-score, replicate C": 0.79}
{"gene": "DIABLO", "mean z-score": -0.08, "z-score, replicate A": 0.08, "z-score, replicate B": 0, "z-score, replicate C": -0.33}
{"gene": "OR2L2", "mean z-score": 0.21, "z-score, replicate A": 0.32, "z-score, replicate B": 0.46, "z-score, replicate C": -0.15}
{"gene": "LOC387904 (retired record)", "mean z-score": -0.97, "z-score, replicate A": -0.85, "z-score, replicate B": -0.85, "z-score, replicate C": -1.21}
{"gene": "PTPN23", "mean z-score": -1.62, "z-score, replicate A": -1.4, "z-score, replicate B": -1.54, "z-score, replicate C": -1.93}
{"gene": "AHSP", "mean z-score": -0.46, "z-score, replicate A": 0.26, "z-score, replicate B": -0.82, "z-score, replicate C": -0.83}
{"gene": "SEPTIN10", "mean z-score": 0.43, "z-score, replicate A": 0.22, "z-score, replicate B": 0.33, "z-score, replicate C": 0.73}
{"gene": "NALF2", "mean z-score": 1.7, "z-score, replicate A": 2.24, "z-score, replicate B": 1.66, "z-score, replicate C": 1.22}
{"gene": "SLC25A28", "mean z-score": 1.08, "z-score, replicate A": 0.92, "z-score, replicate B": 1.39, "z-score, replicate C": 0.94}
{"gene": "GPN1", "mean z-score": "3.63 (active)", "z-score, replicate A": 3.3, "z-score, replicate B": 3.46, "z-score, replicate C": 4.13}
{"gene": "ARHGAP22", "mean z-score": "2.79 (active)", "z-score, replicate A": 2.76, "z-score, replicate B": 2.92, "z-score, replicate C": 2.7}
{"gene": "PLEK", "mean z-score": -1.05, "z-score, replicate A": -1.14, "z-score, replicate B": -1.02, "z-score, replicate C": -0.99}
{"gene": "LRRC8C-DT", "mean z-score": 0.49, "z-score, replicate A": 0.58, "z-score, replicate B": 0.56, "z-score, replicate C": 0.34}
{"gene": "CHRNA6", "mean z-score": 0.82, "z-score, replicate A": 0.75, "z-score, replicate B": 1.03, "z-score, replicate C": 0.68}
{"gene": "RHPN1-AS1", "mean z-score": 1.26, "z-score, replicate A": 1.59, "z-score, replicate B": 1.54, "z-score, replicate C": 0.63}
{"gene": "CYP2B6", "mean z-score": -0.51, "z-score, replicate A": -1.14, "z-score, replicate B": -0.73, "z-score, replicate C": 0.35}
{"gene": "SHFL", "mean z-score": 0.34, "z-score, replicate A": 0.09, "z-score, replicate B": 0.49, "z-score, replicate C": 0.44}
{"gene": "GCLC", "mean z-score": 0.61, "z-score, replicate A": 0.86, "z-score, replicate B": 0.59, "z-score, replicate C": 0.39}
